Reference: PubChem BioAssay AID624099 (ICCB-Longwood, 2012)
Aim: 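Host factors E2 relies on to silence an HPV18 LCR reporter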 (primary screen). System: human C33A cervical carcinoma cells (HPV-negative) stably expressing BPV1 E2 and an HPV18 LCR luciferase reporter. Reagents: siRNA pool against human genes, 40 nM. Time to read-out: 72 h. Measured: 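HPV18 LCR reporter light per well, converted to plate-wise z-scores that exclude control wells, and averaged over triplicate plates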. Direction: mean z-score and z-score: higher = stronger reporter signal, weaker E2 silencing. Call rule: 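Mean z ≥ 2 together with z ≥ 2 in two or more of the three replicates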.
This is a random part of about 21,000 deposited reagents. 497 of them (2.4%) count as active. 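Higher z means weaker E2 silencing; only reporter increases were scored, and knock-downs that hurt cell survival may mask genuine repressor factors.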 Reagents against one gene are numbered here.

| Target gene | pool no. | mean z-score | z-score, replicate A | z-score, replicate B | z-score, replicate C | Outcome |
| --- | --- | --- | --- | --- | --- | --- |
| LOC389905 (retired record) | 1 | 0.19 | -0.01 | 0.11 | 0.47 | inactive |
| ELF1 | 1 | 1.38 | 1.77 | 0.72 | 1.64 | inactive |
| PPIL2 | 1 | 0.96 | 0.87 | 1.02 | 1 | inactive |
| ASPA | 1 | -0.51 | -0.52 | -0.7 | -0.29 | inactive |
| SCN5A | 1 | 0.57 | 0.38 | 0.79 | 0.55 | inactive |
| ZBTB33 | 1 | -0.02 | 0.46 | -0.43 | -0.1 | inactive |
| LINC02239 | 1 | 0.74 | 0.78 | 0.78 | 0.66 | inactive |
| IL36A | 1 | 2.43 | 2.69 | 2.3 | 2.31 | active |
| DYNLT2B | 1 | -0.06 | -0.08 | -0.27 | 0.18 | inactive |
| DNAJB3P | 1 | 0.13 | 0.02 | -0.01 | 0.39 | inactive |
| FANCE | 1 | 1 | 1.24 | 0.95 | 0.82 | inactive |
| TMEM143 | 1 | -0.73 | -1.32 | -0.66 | -0.22 | inactive |
| PARD6B | 1 | 0.88 | 0.43 | 0.96 | 1.27 | inactive |
| FAIM2 | 1 | 0.7 | 0.69 | 0.34 | 1.07 | inactive |
| MMD | 1 | 0.72 | 0.65 | 0.73 | 0.78 | inactive |
| ALG14 | 1 | -0.81 | -0.89 | -1.16 | -0.39 | inactive |
| KBTBD8 | 1 | -0.25 | -0.37 | -0.01 | -0.36 | inactive |
| UBE2O | 1 | 0.42 | 0.61 | 0.04 | 0.61 | inactive |
| ERF | 1 | 0.37 | 0.46 | 0.21 | 0.44 | inactive |
| ABCG1 | 1 | -0.59 | -0.79 | -0.49 | -0.5 | inactive |
| LGALS3 | 1 | 1.62 | 1.39 | 1.54 | 1.94 | inactive |
| LGALS3 | 2 | 0.98 | 0.85 | 1.1 | 1 | inactive |
| SNRNP48 | 1 | -0.24 | -0.48 | 0.07 | -0.33 | inactive |
| CCDC39 | 1 | -0.1 | -0.06 | -0.17 | -0.07 | inactive |
| LOC400953 (retired record) | 1 | -1.29 | -1.19 | -1.33 | -1.35 | inactive |
| ASB8 | 1 | 1.15 | 1.39 | 1.09 | 0.98 | inactive |
| NAA38 | 1 | -0.12 | -0.1 | 0.08 | -0.35 | inactive |
| ALPI | 1 | 0.74 | 0.81 | 0.44 | 0.98 | inactive |
| MS4A14 | 1 | 1.98 | 1.91 | 1.63 | 2.38 | inactive |
| ARHGAP10 | 1 | 0.51 | 0.42 | 0.57 | 0.54 | inactive |
| LOC400212 | 1 | -1.52 | -1.86 | -0.96 | -1.74 | inactive |
| RARRES2 | 1 | 0.17 | 0.16 | 0.28 | 0.08 | inactive |
| F2RL3 | 1 | 0.31 | 0.3 | 0.28 | 0.36 | inactive |
| ALDH1A3 | 1 | -0.72 | -0.91 | -0.48 | -0.77 | inactive |
| ALDH1A3 | 2 | -0.25 | -0.46 | -0.41 | 0.12 | inactive |
| DTD2 | 1 | 0.03 | -0.22 | 0.25 | 0.05 | inactive |
| TNN | 1 | -0.2 | -0.69 | -0.07 | 0.17 | inactive |
| AGK | 1 | -1.18 | -0.47 | -1.53 | -1.54 | inactive |
| ADAM19 | 1 | -0.23 | -0.24 | -0.39 | -0.07 | inactive |
| CD3G | 1 | 0.4 | 0.32 | 0.5 | 0.39 | inactive |
| ZSCAN5A | 1 | 0.74 | 0.7 | 0.85 | 0.68 | inactive |
| OPHN1 | 1 | -0.26 | -0.37 | -0.36 | -0.06 | inactive |
| GCG | 1 | 0.96 | 0.67 | 0.85 | 1.37 | inactive |
| XRCC3 | 1 | 0.64 | 0.67 | 0.58 | 0.66 | inactive |
| C16orf96 | 1 | 0.12 | 0.35 | -0.27 | 0.3 | inactive |
| CACNG8 | 1 | 0.1 | 0.36 | 0 | -0.07 | inactive |

Entries above whose target name begins with T or t:
| Target gene | pool no. | mean z-score | z-score, replicate A | z-score, replicate B | z-score, replicate C | Outcome |
| --- | --- | --- | --- | --- | --- | --- |
| TMEM143 | 1 | -0.73 | -1.32 | -0.66 | -0.22 | inactive |
| TNN | 1 | -0.2 | -0.69 | -0.07 | 0.17 | inactive |

Next entries:
| Target gene | pool no. | mean z-score | z-score, replicate A | z-score, replicate B | z-score, replicate C | Outcome |
| --- | --- | --- | --- | --- | --- | --- |
| ZNF19 | 1 | -0.43 | -0.34 | -0.36 | -0.6 | inactive |
| LOC390633 (retired record) | 1 | 0.68 | 0.36 | 1.07 | 0.62 | inactive |
| ATP7B | 1 | -0.79 | -0.76 | -0.67 | -0.95 | inactive |
| ZIC5 | 1 | -0.42 | -0.57 | -0.57 | -0.12 | inactive |
| LINC00511 | 1 | 0.49 | 1.32 | -0.16 | 0.31 | inactive |
| CFLAR | 1 | -1.45 | -1.45 | -1.44 | -1.46 | inactive |
| LOC389019 (retired record) | 1 | 0.19 | 0.18 | 0.33 | 0.07 | inactive |
| GTF2A1 | 1 | -1.53 | -1.39 | -1.8 | -1.39 | inactive |
| FRY | 1 | -0.05 | -0.35 | 0.17 | 0.04 | inactive |
| TMEM79 | 1 | -0.07 | -0.49 | 0.35 | -0.08 | inactive |
| ZUP1 | 1 | -0.3 | -0.41 | -0.15 | -0.34 | inactive |
| LOC440750 (retired record) | 1 | -0.56 | -0.5 | -0.38 | -0.8 | inactive |
| MYL9 | 1 | -0.67 | -0.65 | -0.82 | -0.54 | inactive |
| SAMD7 | 1 | 0.19 | 0.13 | 0.21 | 0.24 | inactive |
| PLEKHG6 | 1 | 0.34 | 0.6 | 0.23 | 0.21 | inactive |
| RPTOR | 1 | -0.16 | -0.16 | 0.03 | -0.35 | inactive |
| RPL23AP32 | 1 | -1.09 | -0.98 | -0.95 | -1.34 | inactive |
| NBPF1 | 1 | -0.14 | -0.55 | 0.02 | 0.1 | inactive |
| GPT | 1 | 0.46 | 0.43 | 0.44 | 0.5 | inactive |
| LOC256283 (retired record) | 1 | -0.64 | -0.92 | -0.71 | -0.29 | inactive |
| ARMCX6 | 1 | 2.15 | 2.03 | 2.24 | 2.18 | active |
| SLC22A14 | 1 | -0.12 | -0.13 | -0.12 | -0.11 | inactive |
| GOLIM4 | 1 | 0.02 | -0.31 | -0.05 | 0.42 | inactive |
| THG1L | 1 | 1.55 | 1.88 | 1.5 | 1.26 | inactive |
| IK | 1 | -0.43 | -0.24 | -0.54 | -0.51 | inactive |
| YPEL3 | 1 | 0.03 | 0.07 | 0.04 | -0.03 | inactive |
| PMS2 | 1 | 0.7 | 0.71 | 0.97 | 0.42 | inactive |
